The results in this text go back to patent US8795659B2 (priority 2004, dated 2014).

Data set [1] in a line: Storage stability of lyophilized samples, assayed for purity. It counts as physicochemical. As to conditions: −23° C.
The test system of another data set is Lewis Lung Carcinoma. As to the kind of experiment: Response of s.c. Lewis lung carcinoma in mice (Table 3).

The structures appear in SMILES notation.

`O=P(O)(NCCCl)NCCCl`: the purity after storage in data set [1] (0 months) is 97%; in data set [1] (1 months), 88%; in data set [1] (3 months), 70%.
`NP(=O)(O)N(CCCl)CCCl`: the “T-C (tumor growth delay to 750 mg)” value in the data set on Lewis Lung Carcinoma (30 mg kg^-1/dose IP, Day 2 Q5 min × 7) was 6.1 days; in the data set on Lewis Lung Carcinoma (200 mg kg^-1/dose IP, Day 2 Single dose) it was 4.9 days.
